## PSTVd loop 6 mutant pool in Nicotiana benthamiana

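A pool of all variants was put on leaves of three Nicotiana benthamiana plants. Samples came from the inoculated region at 5 days, the leaf margin at 10 and upper systemic leaves at 12.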

Region: loop 6 of PSTVd (intermediate strain), upper and lower strand joined, each 5' to 3', the first 5 letters being the upper strand, closing pairs included. Wild type: UGACCGCGAG. Varied positions (N): UNNNCGNNNG.

Values are reads per thousand in the sample; higher means more abundant, 0 means not found. Each site shows the three plants. "Pool" is the share in the plasmid pool used as inoculum, on the same scale. The inoculated region was read from the minus strand, the other sites from the plus strand.

UAGUCGAUGG (pool 0.366) read inoculated region 0.104 / 0.0898 / 0.0553; leaf margin 0 / 0 / 0.0232; systemic leaves 0 / 0 / 0. For UAAGCGAGUG (pool 0.196) the result was inoculated region 0.104 / 0.0539 / 0.0922; leaf margin 0.0276 / 0 / 0; systemic leaves 0 / 0 / 0. For UUGUCGAUUG (pool 0.562) the result was inoculated region 0.156 / 0.108 / 0.0738; leaf margin 0 / 0 / 0; systemic leaves 0 / 0 / 0. With UAGCCGUCCG (pool 0.222) the assay gave inoculated region 0.0869 / 0.126 / 0.0553; leaf margin 0.0552 / 0.0252 / 0.0232; systemic leaves 0 / 0 / 0. With UGACAGCGCG (pool 0.0131) the assay gave inoculated region 0.0348 / 0 / 0; leaf margin 0 / 0 / 0; systemic leaves 0 / 0 / 0. UACACGCGCG (pool 0.170) read inoculated region 0.0869 / 0.0898 / 0.0553; leaf margin 0 / 0 / 0.0232; systemic leaves 0 / 0 / 0. For UUGCCGUUUG (pool 0.405) the result was inoculated region 0.139 / 0.144 / 0.148; leaf margin 0.0552 / 0 / 0.0232; systemic leaves 0 / 0 / 0.

For UGACCGGCCG (pool 0.157) the result was inoculated region 0.174 / 0.126 / 0.166; leaf margin 0.331 / 0.0252 / 1.02; systemic leaves 0 / 0 / 0.0615. UUAACGGGUG (pool 0.157) read inoculated region 0.556 / 0.629 / 0.645; leaf margin 0.0828 / 0.0252 / 0.0696; systemic leaves 0 / 0 / 0. UGGACGUUAG (pool 0.497) gave inoculated region 0.156 / 0 / 0.0922; leaf margin 0 / 0 / 0.0232; systemic leaves 0 / 0 / 0. UUCCCGGCAG (pool 0.157) read inoculated region 0.156 / 0.108 / 0.0553; leaf margin 0 / 0 / 0; systemic leaves 0 / 0 / 0. UAGCCGCGAG (pool 0.366) gave inoculated region 0.261 / 0.377 / 0.129; leaf margin 10.4 / 33.2 / 0.325; systemic leaves 0.0180 / 0.0404 / 0.185. UGUACGCCCG (pool 0.196) gave inoculated region 0.0869 / 0.0719 / 0.129; leaf margin 0.0552 / 0 / 0; systemic leaves 0 / 0 / 0. UAAUCGUCUG (pool 0.536) gave inoculated region 0.0869 / 0.0898 / 0.111; leaf margin 0 / 0 / 0.0232; systemic leaves 0 / 0 / 0.0410.

For UUAUCGAUUG (pool 0.366) the result was inoculated region 0.104 / 0.0719 / 0.0553; leaf margin 0 / 0 / 0; systemic leaves 0 / 0 / 0. With UGGCCGCUAG (pool 0.183) the assay gave inoculated region 0.869 / 0.557 / 0.701; leaf margin 0.138 / 0.101 / 0.0696; systemic leaves 0 / 0 / 0. For UCAACGACGG (pool 0.196) the result was inoculated region 0.0521 / 0.0539 / 0.0738; leaf margin 0 / 0 / 0.0232; systemic leaves 0 / 0 / 0. For UUAGCGUCGG (pool 0.261) the result was inoculated region 0.104 / 0.0719 / 0.111; leaf margin 0 / 0 / 0; systemic leaves 0 / 0 / 0.0205. UGACCGAGUG (pool 0.275) read inoculated region 0.348 / 0.234 / 0.221; leaf margin 0.276 / 0.605 / 0.0696; systemic leaves 0.126 / 0.0404 / 0.185. For UAGGCGAACG (pool 0.183) the result was inoculated region 0.104 / 0.0180 / 0.0738; leaf margin 0 / 0 / 0; systemic leaves 0 / 0 / 0. For UAAACGAAUG (pool 0.248) the result was inoculated region 0.139 / 0.0359 / 0.148; leaf margin 0 / 0 / 0; systemic leaves 0 / 0 / 0.

UGAGCGCGUG (pool 0.248) gave inoculated region 0.122 / 0.144 / 0.111; leaf margin 0.0276 / 0 / 0; systemic leaves 0 / 0 / 0. UAUGCGGGAG (pool 0.118) read inoculated region 0.104 / 0.108 / 0.0369; leaf margin 0 / 0 / 0; systemic leaves 0 / 0 / 0. UUGCCUGUGG (pool 0.0131) gave inoculated region 0 / 0 / 0; leaf margin 0 / 0 / 0; systemic leaves 0 / 0 / 0. With UCCUCGCGAU (pool 0.0131) the assay gave inoculated region 0 / 0.0180 / 0.129; leaf margin 0 / 0 / 0.0232; systemic leaves 0 / 0 / 0. UCUGCGACAG (pool 0.222) read inoculated region 0.139 / 0.0898 / 0.0184; leaf margin 0.0276 / 0 / 0.0232; systemic leaves 0 / 0 / 0. With UUCUCGAUAG (pool 0.431) the assay gave inoculated region 0.243 / 0.0898 / 0.148; leaf margin 0 / 0 / 0.255; systemic leaves 0 / 0 / 0. UCCACGCAAG (pool 0.118) read inoculated region 0.956 / 0.844 / 0.443; leaf margin 0 / 0.0252 / 0.116; systemic leaves 0 / 0 / 0.

For UUUGCGUUAG (pool 0.458) the result was inoculated region 0.0521 / 0.0898 / 0.0738; leaf margin 0 / 0 / 0; systemic leaves 0 / 0 / 0. With UGCUCGUGAG (pool 0.235) the assay gave inoculated region 0.139 / 0.0719 / 0.0369; leaf margin 0 / 0 / 0; systemic leaves 0 / 0 / 0. UUGUCGCGAG (pool 0.327) read inoculated region 0.313 / 0.305 / 0.166; leaf margin 0.0552 / 1.21 / 0.0464; systemic leaves 0.0539 / 0 / 0.0615. UCUGCGGCAG (pool 0.235) read inoculated region 0.104 / 0.0180 / 0.148; leaf margin 0 / 0 / 0; systemic leaves 0 / 0 / 0. UAUGCGCAGG (pool 0.157) read inoculated region 0.122 / 0.0359 / 0.148; leaf margin 0 / 0 / 0; systemic leaves 0 / 0 / 0.

The first 2 entries again:

sequence,pool,inoculated region,leaf margin,systemic leaves
UAGUCGAUGG,0.366,0.104 / 0.0898 / 0.0553,0 / 0 / 0.0232,0 / 0 / 0
UAAGCGAGUG,0.196,0.104 / 0.0539 / 0.0922,0.0276 / 0 / 0,0 / 0 / 0

Sequences that differ at fixed positions probably stem from PCR or sequencing errors, and defective variants can be carried along by functional ones. Wild type was 20.7 per thousand in the pool and the most common sequence in every sample (inoculated region 195, 198, 203; leaf margin 629, 591, 734; systemic leaves 942, 870, 868). With 36,220-57,551 reads a sample, very low values are single reads.

Values reported by Wu et al. 2024 (doi:10.1371/journal.ppat.1012142).